PubChem BioAssay AID624099 – ICCB-Longwood | 2012
Here is an unselected part of about 21,000 reagents. Over the whole deposit, 497 (2.4%) are marked active. 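Higher z means weaker E2 silencing; only reporter increases were scored, and knock-downs that hurt cell survival may mask genuine repressor factors.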 Entries without a mark were called inactive. The numbers tell different reagents against one gene apart.

- Test: 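Knock-downs relieving repression by E2 of an HPV18 LCR luciferase reporter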 (primary screen)
- Cells: human C33A cervical carcinoma cells (HPV-negative) stably expressing BPV1 E2 and an HPV18 LCR luciferase reporter
- Knock-down reagent: siRNA pool against human genes, 40 nM
- Timing: 72 h
- Measurement: 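HPV18 LCR reporter light per well, converted to plate-wise z-scores that exclude control wells, and averaged over triplicate plates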
- Direction: mean z-score and z-score: higher = stronger reporter signal, weaker E2 silencing
- Call rule: 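Mean z ≥ 2 together with z ≥ 2 in two or more of the three replicates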

target gene | reagent | mean z-score | z-score, replicate A | z-score, replicate B | z-score, replicate C
NHS (NHS actin remodeling regulator) | 1 | -0.21 | -0.09 | -0.04 | -0.49
TNNI3K (TNNI3 interacting kinase) | 1 | 0.47 | -0.49 | 1.02 | 0.89
ADCY7 (adenylate cyclase 7) | 1 | -0.05 | 0.27 | -0.33 | -0.08
ARK2C | 1 | -0.85 | -0.76 | -1.1 | -0.68
AK1 (adenylate kinase 1) | 1 | 2.03 (active) | 2.21 | 2.16 | 1.72
ADAMTSL4 (ADAMTS like 4) | 1 | -0.88 | -1.2 | -0.57 | -0.89
ADAMTSL4 (ADAMTS like 4) | 2 | -0.21 | -0.41 | -0.41 | 0.2
DEFB105A (defensin beta 105A) | 1 | 1.07 | 1.24 | 1 | 0.97
NDC80 (NDC80 kinetochore complex component) | 1 | -1.19 | -1.3 | -1.08 | -1.19
PNPLA5 (patatin like domain 5, triacylglycerol lipase) | 1 | -0.98 | -0.77 | -1.18 | -1
TST (thiosulfate sulfurtransferase) | 1 | -1.14 | -0.62 | -1.58 | -1.22
HHIP (hedgehog interacting protein) | 1 | -0.31 | -0.22 | -0.53 | -0.2
BOD1 (biorientation of chromosomes in cell division 1) | 1 | -2.05 | -2.37 | -1.85 | -1.93
GABPB2 (GA binding protein transcription factor subunit beta 2) | 1 | -1.41 | -1.42 | -1.35 | -1.46
HSD17B8 (hydroxysteroid 17-beta dehydrogenase 8) | 1 | -0.68 | -0.63 | -0.49 | -0.94
BPIFA2 (BPI fold containing family A member 2) | 1 | 1.06 | 0.85 | 1.29 | 1.03
HS3ST4 (heparan sulfate-glucosamine 3-sulfotransferase 4) | 1 | -0.18 | -0.15 | -0.36 | -0.04
GALNT4 (polypeptide N-acetylgalactosaminyltransferase 4) | 1 | -0.57 | -0.82 | -0.66 | -0.21
TUFM (Tu translation elongation factor, mitochondrial) | 1 | -0.25 | -0.42 | -0.37 | 0.04
GLRA3 (glycine receptor alpha 3) | 1 | 0.13 | 0.29 | 0.24 | -0.13
S100A1 (S100 calcium binding protein A1) | 1 | 1.73 | 1.7 | 1.93 | 1.57
LOC401212 (retired record) | 1 | -0.6 | -0.57 | -0.8 | -0.44
LOC389638 (retired record) | 1 | 1.92 | 2.28 | 1.62 | 1.87
PTGS1 (prostaglandin-endoperoxide synthase 1) | 1 | -0.9 | -0.94 | -1.12 | -0.64
LOC388823 (retired record) | 1 | -0.72 | -0.93 | -0.91 | -0.32
CYSTM1 (cysteine rich transmembrane module containing 1) | 1 | 0.4 | 0.7 | 0.25 | 0.24
LOC388308 (retired record) | 1 | 1.15 | 0.96 | 1.41 | 1.08
FNDC3B (fibronectin type III domain containing 3B) | 1 | -1.08 | -0.79 | -1.41 | -1.04
PPP2R3C (protein phosphatase 2 regulatory subunit B''gamma) | 1 | -0.2 | 0.02 | -0.27 | -0.34
CCDC39 (coiled-coil domain 39 molecular ruler complex subunit) | 1 | -0.1 | -0.06 | -0.17 | -0.07
USP40 (ubiquitin specific peptidase 40) | 1 | -1.34 | -1.04 | -1.45 | -1.51
LOC342659 (retired record) | 1 | -0.05 | -0.22 | -0.03 | 0.1
CA2 (carbonic anhydrase 2) | 1 | -0.7 | -0.7 | -0.76 | -0.63
TMEM68 (transmembrane protein 68) | 1 | -0.39 | -0.47 | -0.02 | -0.68
RPF2P1 (ribosome production factor 2 homolog pseudogene 1) | 1 | 0.5 | 0.77 | 0.65 | 0.08
PIK3CB | 1 | 2.12 (active) | 2.16 | 2.05 | 2.15
SRCIN1 (SRC kinase signaling inhibitor 1) | 1 | 1.06 | 1.29 | 0.69 | 1.19
CDCA2 (cell division cycle associated 2) | 1 | -0.18 | -0.5 | 0.15 | -0.18
GLUD1P4 (glutamate dehydrogenase 1 pseudogene 4) | 1 | 0.31 | 0.55 | 0.16 | 0.22

Active calls, among the entries above:
target gene | reagent | mean z-score | z-score, replicate A | z-score, replicate B | z-score, replicate C
AK1 (adenylate kinase 1) | 1 | 2.03 (active) | 2.21 | 2.16 | 1.72
PIK3CB | 1 | 2.12 (active) | 2.16 | 2.05 | 2.15
